Experimental data: patent US9393216B2, “Vaginal matrices: nanofibers for contraception and prevention of HIV infection” (priority 2012, dated 2016)

Experiments:
[1] = mildly acidic pH; cited from earlier work
[2] = Maraviroc solubility following release from fibers; assay type: physicochemical; conditions: pH 4.0 citrate buffer, absence of polymer or surfactant
[3] = tested on: TZM-bl cells; assay: Cytotoxicity in TZM-bl cells (CellTiter Blue); assay type: cell-based; conditions: compared with media controls
[4] = Drug stability in fibers stored at room temperature; assay type: physicochemical; conditions: PLLA/PEO meshes, at least five months

In the case of maraviroc [MVC], the Solubility [1] is given as greater than 1 mg/mL, the “Solubility limit of maraviroc” value [2] is given as 21.3 ± 6.4 mg/mL and the “Toxicity to TZM-bL cells” value [3] is given as “nontoxic”. For the same substance, the “Initially-loaded drug detected in stored fiber meshes” value [4] was 0.95%.
